Anti-infective test results gathered from many reports (values: NIAID ChemDB through PubChem).

Shared fields: target-level tests; agent: Hepatitis C virus; target: Nonstructural protein 5B; measure: inhibition

Neighbouring rows are from separate reports. Percent inhibition refers to the dose given; in toxicity tests it is the harm to the cells.

{"compound": "CCN(CCO)c1cc(C(=O)Nc2ccc3cn[nH]c3c2)c(F)cc1F", "dose": "10 µg/mL", "result": "37%"}
{"compound": "Cc1cnc(CNC(=O)c2ccc(S(=O)(=O)Nc3ccc(N4CCOCC4)cc3)cc2)cn1", "dose": "0.01 µg/mL", "result": "47%"}
{"compound": "CSc1nc(Nc2ccc(N3CCOCC3)cc2)cc(N2CCN(CC(=O)NCC3CC3)CC2)n1", "dose": "1 µg/mL", "result": "70%"}
{"compound": "CC(C)NC1=NC(NC(C)C)N(CN)C(Nc2ccc3cn[nH]c3c2)=N1", "dose": "0.1 µg/mL", "result": "38%"}
{"compound": "O=C(Nc1ccc2cn[nH]c2c1)c1cc(NCCc2ccccn2)c(F)cc1F", "dose": "0.1 µg/mL", "result": "14%"}
{"compound": "COc1nc(NCCc2c[nH]c3ccccc23)nc(Nc2ccc3[nH]ncc3c2)n1", "dose": "10 µg/mL", "result": "33%"}
{"compound": "CN(C)C(=O)c1ccc(S(=O)(=O)Nc2ccc(N3CCOCC3)cc2)cc1", "dose": "10 µg/mL", "result": "92%"}
{"compound": "CCOC(=O)N1CCN(c2nc(Nc3ccc4[nH]ncc4c3)nc(OC)n2)CC1", "dose": "10 µg/mL", "result": "44%"}
{"compound": "O=C(Nc1ccc2cn[nH]c2c1)c1cc(NCCN2CCOCC2)c(F)cc1F", "dose": "1 µg/mL", "result": "26%"}
{"compound": "COCCNc1nc(Nc2ccc3cn[nH]c3c2)nc(OC)n1", "dose": "1 µg/mL", "result": "41%"}
{"compound": "O=C(O)c1ccc(S(=O)(=O)Nc2ccc(N3CCOCC3)cc2)cc1", "dose": "1 µg/mL", "result": "70%"}
{"compound": "O=C(Nc1ccc2[nH]ncc2c1)c1cc(NCCN2CCOCC2)c(F)cc1F", "dose": "10 µg/mL", "result": "52%"}
{"compound": "O=C(NCc1ccccn1)c1ccc(S(=O)(=O)Nc2ccc(N3CCOCC3)cc2)cc1", "dose": "1 µg/mL", "result": "76%"}
{"compound": "COc1nc(NCCCn2ccnc2)nc(Nc2ccc3cn[nH]c3c2)n1", "dose": "0.1 µg/mL", "result": "30%"}
{"compound": "O=C(Nc1ccc2[nH]ncc2c1)c1cc(NCCO)c(F)cc1F", "dose": "0.1 µg/mL", "result": "0%"}

A second listing of 2 rows from above:

Cc1cnc(CNC(=O)c2ccc(S(=O)(=O)Nc3ccc(N4CCOCC4)cc3)cc2)cn1 ; dose: 0.01 µg/mL ; result: 47%
CC(C)NC1=NC(NC(C)C)N(CN)C(Nc2ccc3cn[nH]c3c2)=N1 ; dose: 0.1 µg/mL ; result: 38%